Target: Human immunodeficiency virus type 1 integrase (Human immunodeficiency virus 1, UniProt Q7ZJM1, C280S/F185K)
Experiment: Inhibition of full-length HIV-1 integrase F185K/C280S double mutant strand transfer activity expressed in Escherichia coli BL21(DE3) using oligo DNA as substrate preincubated for 10 mins followed by substrate addition incubated for 30 mins by plate reader analysis

Protein sequences, listed by entry. Tags and fused reporters are not part of them.
UniProt Q7ZJM1, entry or part of it C280S/F185K: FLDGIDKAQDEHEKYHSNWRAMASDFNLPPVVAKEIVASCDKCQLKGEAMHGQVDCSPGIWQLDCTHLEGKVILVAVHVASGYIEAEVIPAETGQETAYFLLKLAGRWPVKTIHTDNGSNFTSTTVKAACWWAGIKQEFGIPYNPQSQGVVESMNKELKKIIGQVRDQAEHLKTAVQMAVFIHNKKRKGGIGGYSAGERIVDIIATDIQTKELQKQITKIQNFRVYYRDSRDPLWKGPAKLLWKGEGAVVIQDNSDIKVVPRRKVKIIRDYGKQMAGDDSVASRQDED

SMILES | IC50 [µM]
O=C(O)c1cn(Cc2ccc(-c3cnc4ccccc4c3)cc2)cc(O)c1=O | 16
O=C(O)c1cn(Cc2cccc(C(F)(F)F)c2)cc(O)c1=O | > 100
O=C(O)c1cn(Cc2ccc(Cl)cc2)cc(O)c1=O | 67
O=C(O)c1cn(Cc2cccc3ccccc23)cc(O)c1=O | 23
O=C(O)c1cn(Cc2ccc(-c3cccnc3)cc2)cc(O)c1=O | 35
COc1ccc(Cn2cc(O)c(=O)c(C(=O)O)c2)cc1 | > 100

— ChEMBL document CHEMBL3817772, “Design, Synthesis, and Biological Evaluations of Hydroxypyridonecarboxylic Acids as Inhibitors of HIV Reverse Transcriptase Associated RNase H” (J Med Chem, 2016)
